Pooled drug test results. Numbers come from NIAID ChemDB, via PubChem.

Shared fields: target-level tests; organism: HIV-1; protein: Reverse transcriptase; measure: IC50

ICn is the concentration giving n% inhibition. Conditions beyond the fields shown may differ between rows. Blank or dashed fields: not listed here.

SMILES | strain | read by | mutations | result
COc1cc2c(cc1[N+](=O)[O-])CN(c1nn3c(C4CC4)nnc3c3ccccc13)CC2 | 98US_MSC5016 | RT activity / fluorescence | - | 39.2 µM
CC(C)(C#Cc1ccc(NC(=O)CSc2nnnn2-c2ccc(C3CC3)cc2Cl)c(Cl)c1)NC(=O)CNCCCn1ccnc1 | WT | PicoGreen / fluorescence | - | <1 µM
CCc1cc(NCc2nc3c(C)ccc(C)c3o2)c(=O)[nH]c1C | - | nucleotide incorporation | RT-Y181H | 1.14 µM
CC(C)(C#Cc1ccc(NC(=O)CSc2nnnn2-c2ccc(C3CC3)cc2Cl)c(Cl)c1)NCc1nccs1 | - | PicoGreen / fluorescence | RT-K103 Y181C | <1 µM
Cc1c(N2CCc3ccccc3C2)nn2c(C)nnc2c1C | KER2008 | RT activity / fluorescence | - | 28.4 µM
CNc1cccnc1N1CCN(C(=O)c2cc3ccccc3[nH]2)CC1 | - | nucleotide incorporation | - | <100 µM
CCN1c2ncc(CCOc3ccc(-c4cnc(C)c(C)c4)cc3C)cc2C(=O)N(C)c2cccnc21 | IIIB | nucleotide incorporation / radiometric | - | <0.05 µM
c1ccc2c(c1)CCN(c1nn3c(-c4ccsc4)nnc3c3ccccc13)C2 | KER2008 | RT activity / fluorescence | - | 10.1 µM
CC(C)(C#Cc1ccc(NC(=O)CSc2nnnn2-c2ccc(C3CC3)cc2Cl)c(Cl)c1)NC(=O)CN1CCCC1 | - | PicoGreen / fluorescence | RT-K103 Y181C | <1 µM
CCNc1cccnc1N1CCN(C(=O)c2cc3c(C)c(OC)c(C)c(C)c3[nH]2)CC1 | - | nucleotide incorporation | - | <100 µM
N#Cc1ccc2c(c1)CN(c1nn3c(C4CC4)nnc3c3ccccc13)CC2 | IIIB | RT activity / fluorescence | - | 1.69 µM
CC(C)(C#Cc1ccc(NC(=O)CSc2nnnn2-c2ccc(C(C)(C)C)cc2Cl)c(Cl)c1)OCC(=O)Nc1ccccc1 | WT | PicoGreen / fluorescence | - | <1 µM
Cc1nnc2c3ccccc3c(N3CCc4c(F)cccc4C3)nn12 | 98US_MSC5016 | RT activity / fluorescence | - | 4.32 µM
CC(C)(C#Cc1ccc(NC(=O)CSc2nnnn2-c2ccc(C3CC3)cc2Cl)c(Cl)c1)NC(=O)c1cnccn1 | - | PicoGreen / fluorescence | RT-K103 Y181C | <1 µM
CCN1c2ncc(CCOc3ccc(NC(=O)c4ccc(C(=O)O)cn4)cc3C)cc2C(=O)N(C)c2cccnc21 | IIIB | nucleotide incorporation / radiometric | - | <0.05 µM
CC(C)c1nnc2c3ccccc3c(N3CCc4ccc(N)cc4C3)nn12 | IIIB | RT activity / fluorescence | - | 0.22 µM
CNc1cccnc1N1CCN(C(=O)c2cc3cc(OC)ccc3[nH]2)CC1 | - | nucleotide incorporation | - | <100 µM
C=C(C)C#Cc1ccc(NC(=O)CSc2nnnn2-c2ccc(C3CC3)cc2Cl)c(Cl)c1 | WT | PicoGreen / fluorescence | - | <1 µM
FC(F)(F)c1ccc2c(c1)CN(c1nn3c(C4CC4)nnc3c3ccccc13)CC2 | KER2008 | RT activity / fluorescence | - | 2.18 µM
CC(C)(C)c1ccc(-n2nnnc2SCC(=O)Nc2ccc(NC(=O)Cc3ccc4ccoc4c3)cc2Cl)c(Cl)c1 | WT | PicoGreen / fluorescence | - | <1 µM
CCN1c2ncc(CCOc3ccc(-c4cccnc4)cc3C)cc2C(=O)N(C)c2cccnc21 | IIIB | nucleotide incorporation / radiometric | - | <0.05 µM
Cc1ccc(-n2nccc2SCC(=O)Nc2ccc(-c3ccc(CC(=O)O)cc3)cc2Cl)c(Cl)c1 | WT | PicoGreen / fluorescence | - | <1 µM
CCNc1cccnc1N1CCN(Cc2cc(C)c(O)c(C)c2)CC1 | - | nucleotide incorporation | - | <100 µM
CCN1c2ncc(CCOc3ccc(-c4ccc(O)c(C(=O)O)c4)cc3C)cc2C(=O)N(C)c2cccnc21 | IIIB | nucleotide incorporation / radiometric | - | <0.05 µM

A second listing of 2 rows from above:

{"SMILES": "CNc1cccnc1N1CCN(C(=O)c2cc3cc(OC)ccc3[nH]2)CC1", "read by": "nucleotide incorporation", "result": "<100 µM"}
{"SMILES": "C=C(C)C#Cc1ccc(NC(=O)CSc2nnnn2-c2ccc(C3CC3)cc2Cl)c(Cl)c1", "strain": "WT", "read by": "PicoGreen / fluorescence", "result": "<1 µM"}